Measured values from several laboratories, pooled; numbers as filed in NIAID ChemDB.

Common to all: toxicity to cultured cells; cell line: MT-4; measure: CC50

Rows are shuffled and stem from different studies. CCn: concentration that lowers growth or viability of the cells by n%.

smiles | result
CC(C)OP(=O)(COCC1(Cn2ccc(N)nc2=O)CC=CC1)OC(C)C | >100 µg/mL
NC(N)=NCCC[C@H](N)C(=O)NC[C@H]1O[C@H](O[C@H]2C(O)[C@@H](O[C@H]3O[C@H](CO)[C@@H](O)[C@H](NC(=O)[C@@H](N)CCCN=C(N)N)[C@H]3O)[C@H](NC(=O)[C@@H](N)CCCN=C(N)N)C[C@@H]2NC(=O)[C@@H](N)CCCN=C(N)N)[C@H](O)[C@@H](O)[C@@H]1O | >1130 µM
O=C(/C=C/c1ccc(OC2OC(CO)C(O)C(O)C2OC2OCC(O)(CO)C2O)cc1)c1ccc(O)cc1O | >100 µg/mL
CC(=O)Oc1ccc2cc(Br)ccc2c1Cc1c(C)[nH]c2ccccc12 | 16 µM
COc1ccc2c(O)c(C(c3cccc(NS(=O)(=O)c4cccc5cccnc45)c3)C3CC3)c(=O)oc2c1 | >30 µM
CCCCC/C=C\C/C=C\CCCCCCCC(=O)OCC1=C[C@H]2[C@@H]3C(C)(C)[C@]3(OC(C)=O)[C@H](O)[C@@H](C)[C@]2(O)[C@@H]2C=C(C)C(=O)[C@@]2(O)C1 | >62.5 µg/mL
CCC(Cc1ccccc1)c1cc(O)c(C(c2cccc(NS(=O)(=O)c3cccc4cccnc34)c2)C2CC2)c(=O)o1 | >30 µM
C(CCC1CNCCNCCCNCCNC1)CCC1CNCCNCCCNCCNC1 | 110 µM
c1cc(CN2CCCNCCNCCCNCC2)ccc1CN1CCCNCCNCCCNCC1 | >250 µg/mL
CCCCCCCCCCCCCC(=O)O[C@@H]1[C@@H](C)[C@@]2(O)[C@@H](C=C(COC(C)=O)C[C@@]3(O)C(=O)C(C)=C[C@@H]23)[C@@H]2C(C)(C)[C@]12OC(C)=O | >1000 µg/mL
Fc1c(F)c(CN2CCCNCCNCCCNCC2)c(F)c(F)c1CN1CCCNCCNCCCNCC1 | >250 µg/mL
Cc1cn([C@H]2C[C@H](N=[N+]=[N-])[C@@H](CO)O2)c(=O)[nH]c1=O | 1.02 µg/mL
CC(=O)Oc1ccc2ccccc2c1Cc1c(C)[nH]c2ccccc12 | 50 µM
O=c1[nH]cnc2c1ncn2[C@H]1CC[C@@H](CO)O1 | 1114 µM
C1CNCCNCCNCCNCCN1 | 8.3 µM
c1cc(CCN2CCCNCCNCCCNCC2)ccc1CCN1CCCNCCNCCCNCC1 | >250 µg/mL
CC1=C[C@H]2[C@@]3(O)[C@H](C)[C@@H](O)[C@]4(O)[C@H]([C@@H]3C=C(CO)C[C@@]2(O)C1=O)C4(C)C | >500 µg/mL
O=C(O)c1cc(CN2CCCNCCNCCCNCC2)ccc1CN1CCCNCCNCCCNCC1 | >250 µg/mL
CC1(C)C=Cc2c(ccc3c2OC[C@@H](c2ccc(O)cc2O)C3)O1 | 4 µg/mL
c1ncc(CN2CCCNCCNCCCNCC2)cc1CN1CCCNCCNCCCNCC1 | >250 µg/mL
Nc1nc(Cl)nc2c1ncn2[C@@H]1C[C@H](O)[C@H](CO)O1 | >10 µM
C#CCN1C(=O)N(Cc2ccccc2)S(=O)(=O)c2cscc21 | 157 µM
c1ccc(-c2cc(CN3CCCNCCNCCCNCC3)ccc2CN2CCCNCCNCCCNCC2)cc1 | >250 µg/mL
[N-]=[N+]=N[C@H]1C[C@H](n2cnc3c(OCc4ccccc4)nc(N)nc32)O[C@@H]1CO | >200 µM
COc1ccc2c(Cc3c[nH]c4ccc(OC)cc34)c(OC(C)=O)ccc2c1 | 34 µM
CCC(Cc1ccccc1)c1cc(O)c(C(c2cccc(NC(=O)[C@H](Cc3cn(S(=O)(=O)c4ccc(C)cc4)cn3)NC(=O)OC(C)(C)C)c2)C2CC2)c(=O)o1 | >30 µM
[N-]=[N+]=N[C@H]1C[C@H](n2cnc3c(NCCc4ccccc4)nc(N)nc32)O[C@@H]1CO | <200 µM
C1CNCCNCCCN2CCCNCCNCCCN(C1)CC2 | >250 µg/mL
Nc1nc(Cl)nc2c1ncn2[C@@H]1C=C[C@H](CO)O1 | >10 µM
COc1ccc2c(O)c(C(c3cccc(NS(=O)(=O)c4ccc(C#N)cc4)c3)C3CC3)c(=O)oc2c1 | >30 µM
C[C@]1(CO)O[C@@H](n2ccc(N)nc2=O)[C@@H](O)[C@@H]1O | 1.2 µM
[N-]=[N+]=N[C@H]1C[C@H](n2cnc3c(NCc4ccccc4)nc(N)nc32)O[C@@H]1CO | >80 µM
CC(C)=CCc1c(O)cc(CCc2ccc(O)c(O)c2)c(CC=C(C)C)c1O | 2 µg/mL
CCN1C(=O)N(Cc2cccc(Cl)c2)S(=O)(=O)c2cscc21 | 498 µM
CCOc1nc(N)nc2c1ncn2[C@H]1C[C@H](N=[N+]=[N-])[C@@H](CO)O1 | >200 µM
COc1ccc2ccc(OC(C)=O)c(Cc3c[nH]c4ccccc34)c2c1 | 55 µM
c1ccc(-c2cc(CN3CCCNCCNCCCNCC3)cc(CN3CCCNCCNCCCNCC3)c2)cc1 | >250 µg/mL
Cc1ccnc2c1NC(=O)c1cccnc1N2C1CC1 | 683 µM
Cc1c([C@@H](C)c2c(F)cccc2F)nc(SC2CCCC2)[nH]c1=O | >200 µM
Cn1cnc(S(=O)(=O)Nc2cccc(C(c3c(O)cc(CCc4ccccc4)oc3=O)C3CC3)c2)c1 | >30 µM
C1CNCCNCC(CCCC2CNCCNCCCNCCNC2)CNCCNC1 | 230 µM
CCCNc1nc(N)nc2c1ncn2[C@H]1C[C@H](N=[N+]=[N-])[C@@H](CO)O1 | >200 µM
CC1=C[C@H]2[C@@]3(O)[C@H](C)[C@@H](O)[C@]4(O)[C@H]([C@@H]3C=C(CO)C[C@]2(O)C1=O)C4(C)C | >1000 µg/mL
[N-]=[N+]=N[C@H]1C[C@H](n2cnc3c(N4CCC4)nc(N)nc32)O[C@@H]1CO | >200 µM
CCC(Cc1ccccc1)c1cc(O)c(C(c2cccc(NC(=O)Cc3ccncc3)c2)C2CC2)c(=O)o1 | >30 µM
Cc1nc(N)nc2c1ncn2[C@H]1C[C@H](N=[N+]=[N-])[C@@H](CO)O1 | >200 µM
CC(C)=CCc1c(O)ccc(C(=O)/C=C/c2cc(O)c3c(c2)C=CC(C)(C)O3)c1O | 12 µg/mL
C[C@@H]1[C@H](O)[C@@H](CO)O[C@H]1n1ccc(N)nc1=O | ≥100 µM
Cc1cn([C@H]2C[C@H](N=[N+]=[N-])[C@@H](CO)O2)c(=O)[nH]c1=O | 27 µM

A second listing of 3 rows from above:

{"smiles": "NC(N)=NCCC[C@H](N)C(=O)NC[C@H]1O[C@H](O[C@H]2C(O)[C@@H](O[C@H]3O[C@H](CO)[C@@H](O)[C@H](NC(=O)[C@@H](N)CCCN=C(N)N)[C@H]3O)[C@H](NC(=O)[C@@H](N)CCCN=C(N)N)C[C@@H]2NC(=O)[C@@H](N)CCCN=C(N)N)[C@H](O)[C@@H](O)[C@@H]1O", "result": ">1130 µM"}
{"smiles": "c1ccc(-c2cc(CN3CCCNCCNCCCNCC3)ccc2CN2CCCNCCNCCCNCC2)cc1", "result": ">250 µg/mL"}
{"smiles": "C1CNCCNCC(CCCC2CNCCNCCCNCCNC2)CNCCNC1", "result": "230 µM"}